Measurements as given in article PMC5063474.
The exact form of at least one protein or probe is not confirmed.

Molecular target: phosphorylated His6-CpxR (UniProt A0A0H2ZDR9)
Test: EMSA
Conditions: acetyl phosphate, 20-160 nM CpxR; EMSA: 0.2 nM DIG-DNA, 37 C 30 min, 6% native PAGE; phosphorylation in 100 mM Tris-HCl pH 7.4, 10 mM MgCl2, 125 mM KCl, 50 mM acetyl phosphate, 30 C 2 h; recombinant protein; residues 1-225; protein details: N-terminal His6 (pET28a); label: DIG; probe letters rebuilt from the primers and the genome

| Sequence | binding result |
| --- | --- |
| CATGCTGGAAGACCGCCATCAGCGCGGGCATCAGGTCGGGATTCACGGGGTAGTTCATTGGTTTGGCCGAGTAAACCTAATGTAAATGTGGTTGATCCAGTCAACTATTTTGCTTATTTTAGTTGACCTTATCAACCTTGTTTCAGGTTCTGAATATGGGCCATG (double strand) [mexAp probe] | binds |
| CCTTTCTGGGTCCGGCCATTTACCGGATGAGCCCAGTCTAGGGAGGTCAAGGTCAAGCGCGGTCAGCCCTGGGTAAAGCTTGGGTAAAGACCTTGTGTCGGCGGGCTGACGAAACCCGCTCAGTGGCTGTAGTAGTAGCC (double strand) [cpxPp probe] | binds |
